Results of unrelated studies side by side (data: NIAID ChemDB).

All rows: enzyme or target tests; species: HIV-1; protein: Protease

Rows are shuffled and stem from different studies. a–b is a range or a potency band. ICn is the concentration giving n% inhibition.

{"smiles": "COC(=O)CCC(=O)NCCCCC(C)(C)CN(C[C@@H](O)[C@H](Cc1ccccc1)NC(=O)O[C@H]1CO[C@H]2OCC[C@H]21)S(=O)(=O)c1ccc2c(c1)OCO2", "read-out": "Ki", "read by": "fluorescence", "value": "<0.001 µM"}
{"smiles": "Cc1cn([C@@H]2C[C@@H](N=[N+]=[N-])[C@H](COC(=O)CC(C)(C)CC(=O)N[C@@H](Cc3ccccc3)[C@H](O)C(=O)N3CSC[C@H]3C(=O)NC(C)(C)C)O2)c(=O)[nH]c1=O", "read-out": "IC50", "value": ">5 µM"}
{"smiles": "COC(=O)N[C@H](C(=O)NN(CC[C@@]1(Cc2ccccc2)C(=O)N(C2c3ccccc3C[C@H]2O)C[C@@H]1O)Cc1ccc(-c2ccccn2)cc1)C(C)(C)C", "read-out": "Ki", "read by": "fluorescence", "value": "0.0063 µM"}
{"smiles": "CC(C)(CCCCNC(=O)C1CC1)CN(C[C@@H](O)[C@H](Cc1ccccc1)NC(=O)O[C@H]1CO[C@H]2OCC[C@H]21)S(=O)(=O)c1ccc2c(c1)OCO2", "read-out": "Ki", "read by": "fluorescence", "value": "<0.001 µM"}
{"smiles": "CC(C)C(O)[C@@H]1CC(NC(=O)[C@H](OCc2ccccc2)[C@H](O)[C@@H](O)[C@@H](OCc2ccccc2)C(=O)N[C@H]2c3ccccc3C[C@H]2O)CO1", "read-out": "Ki", "read by": "fluorescence", "value": "0.0016 µM"}
{"smiles": "CCOC(=O)NCCCC(C)(C)CN(C[C@@H](O)[C@H](Cc1ccccc1)NC(=O)O[C@H]1CO[C@H]2OCC[C@H]21)S(=O)(=O)c1cccc(N)c1", "read-out": "Ki", "read by": "fluorescence", "value": "<0.001 µM"}
{"smiles": "CC[C@@H](C)[C@H](NC(=O)[C@H](CCC(N)=O)NC(=O)[C@@H]1CCCN1C(=O)[C@@H](O)[C@H](Cc1ccccc1)NC(=O)[C@H](CC(N)=O)NC(=O)CCc1ccccc1)C(N)=O", "read-out": "IC50", "value": ">5 µM"}
{"smiles": "CC(C)CN(C[C@@H](O)[C@H](Cc1ccccc1)NC(=O)CCc1c[nH]c2ccccc12)S(=O)(=O)c1ccc(Br)cc1", "read-out": "IC50", "value": "0.024 µM"}
{"smiles": "CC(C)(CCCN=C(N)NC#N)CN(C[C@@H](O)[C@H](Cc1ccccc1)NC(=O)O[C@H]1CO[C@H]2OCC[C@H]21)S(=O)(=O)c1ccc2c(c1)OCO2", "read-out": "Ki", "read by": "fluorescence", "value": "<0.001 µM"}
{"smiles": "CC(C)[C@H](NC(=O)[C@H](CCCN=C(N)N)NC(=O)N[C@@H](Cc1ccccc1)C(=O)O)C(=O)N[C@H](C=O)Cc1ccccc1", "read-out": "IC50", "read by": "HPLC", "value": "1.3 µM"}
{"smiles": "COC(=O)N[C@H](C(=O)NN(CC[C@@]1(Cc2ccccc2)C(=O)N(C2c3ccccc3C[C@H]2O)C[C@@H]1O)Cc1ccc(-c2cccnc2)cc1)C(C)(C)C", "read-out": "Ki", "read by": "fluorescence", "value": "0.0063 µM"}
{"smiles": "COc1ccc(S(=O)(=O)N(CC(C)C)C[C@@H](O)[C@H](Cc2ccccc2)NC(=O)OCc2cccnc2)cc1", "read-out": "IC50", "value": "0.009 µM"}
{"smiles": "CCCCNC(=O)OCCCCC(C)(C)CN(C[C@@H](O)[C@H](Cc1ccccc1)NC(=O)O[C@H]1CO[C@H]2OCC[C@H]21)S(=O)(=O)c1ccc2c(c1)OCO2", "read-out": "Ki", "read by": "fluorescence", "value": "<0.001 µM"}
{"smiles": "Cc1cn([C@@H]2C[C@@H](N=[N+]=[N-])[C@H](COC(=O)CCCC(=O)N[C@@H](Cc3ccccc3)[C@H](O)C(=O)N3CSC[C@H]3C(=O)NC(C)(C)C)O2)c(=O)[nH]c1=O", "read-out": "IC50", "value": ">5 µM"}
{"smiles": "O=C(NC1CO[C@H](CO)C1)[C@H](OCc1ccccc1)[C@H](O)[C@@H](O)[C@@H](OCc1ccccc1)C(=O)N[C@H]1c2ccccc2C[C@H]1O", "read-out": "Ki", "read by": "fluorescence", "value": "0.00025 µM"}
{"smiles": "CC(C)OC(=O)NCCCCC(C)(C)CN(C[C@@H](O)[C@H](Cc1ccccc1)NC(=O)O[C@H]1CO[C@H]2OCC[C@H]21)S(=O)(=O)c1cccc(N)c1", "read-out": "Ki", "read by": "fluorescence", "value": "<0.001 µM"}
{"smiles": "CC[C@H](C)[C@H](NC(=O)CN(C)C)C(=O)N[C@@H](Cc1ccccc1)[C@H](O)CN(CC(C)C)S(=O)(=O)c1ccc(OC)cc1", "read-out": "IC50", "value": "0.002 µM"}
{"smiles": "CC(=O)NCC(=O)NCCCCC(C)(C)CN(C[C@@H](O)[C@H](Cc1ccccc1)NC(=O)O[C@H]1CO[C@H]2OCC[C@H]21)S(=O)(=O)c1ccc2c(c1)OCO2", "read-out": "Ki", "read by": "fluorescence", "value": "<0.001 µM"}
{"smiles": "COC(=O)N[C@H](C(=O)NN(CCC[C@@]1(Cc2ccccc2)C(=O)N(C2c3ccccc3C[C@H]2O)C[C@H]1O)Cc1ccc(-c2cccnc2)cc1)C(C)(C)C", "read-out": "Ki", "read by": "fluorescence", "value": "0.0063 µM"}
{"smiles": "CC(C)CCNC(=O)[C@H](C(C)C)[C@@H](O)[C@H](O)C(=O)[C@H](CC(C)C)NC(=O)[C@H](Cc1cnc[nH]1)NC(=O)COc1ccccc1", "read-out": "Ki", "value": "0.35 µM"}
{"smiles": "CC(C)(C)NC(=O)[C@@H]1CSCN1C(=O)[C@@H](O)[C@H](Cc1ccccc1)NC(=O)CCC(=O)O", "read-out": "IC50", "value": "<5 µM"}
{"smiles": "COCC(=O)NCC(=O)NCCCC(C)(C)CN(C[C@@H](O)[C@H](Cc1ccccc1)NC(=O)O[C@H]1CO[C@H]2OCC[C@H]21)S(=O)(=O)c1ccc2c(c1)OCO2", "read-out": "Ki", "read by": "fluorescence", "value": "<0.001 µM"}
{"smiles": "CC(C)(C)NC(=O)[C@@H]1Cc2ccccc2CN1C(=O)[C@@H](O)[C@H](Cc1ccccc1)NC(=O)[C@H](CC(N)=O)NC(=O)OCc1ccccc1", "read-out": "IC50", "value": ">0.05 µM"}
{"smiles": "COC(=O)N[C@H](C(=O)NN(CC[C@]1(Cc2ccccc2)C(=O)N(C2c3ccccc3C[C@H]2O)C[C@@H]1O)Cc1ccc(Br)cc1)C(C)(C)C", "read-out": "Ki", "read by": "fluorescence", "value": "0.0063 µM"}
{"smiles": "CC(C)CCN(C[C@@H](O)[C@H](Cc1ccccc1)NC(=O)OCc1ccccc1)S(=O)(=O)CCl", "read-out": "IC50", "value": "<10 µM"}
{"smiles": "COc1ccc(S(=O)(=O)N(C[C@@H](O)[C@H](Cc2ccccc2)NC(=O)O[C@H]2CO[C@H]3OCC[C@H]32)CC(C)(C)CCCNC(=O)N(C)C)cc1", "read-out": "Ki", "read by": "fluorescence", "value": "<0.001 µM"}
{"smiles": "CC[C@H](C)[C@H](NC(=O)[C@@H](C[C@H](O)[C@H](CC1CCCCC1)NC(=O)CC(C)(C)C)C(C)C)C(=O)NCc1ccccn1", "read-out": "Ki", "value": "0.07 µM"}
{"smiles": "O=C(NC1CO[C@H](CO)C1)[C@H](OCc1ccccc1)[C@H](O)[C@@H](O)[C@@H](OCc1ccccc1)C(=O)N[C@@H]1CO[C@H](CO)C1", "read-out": "Ki", "read by": "fluorescence", "value": "0.0048 µM"}
{"smiles": "CC(C)(C)NC(=O)[C@@H]1CSCN1C(=O)[C@@H](O)[C@H](Cc1ccccc1)NC(=O)[C@@H](NC(=O)COc1cccc2ccccc12)C(C)(C)S(C)(=O)=O", "read-out": "IC50", "value": "<0.05 µM"}
{"smiles": "COc1ccc(S(=O)(=O)N(C[C@@H](O)[C@H](Cc2ccccc2)NC(=O)CC(C)CS(C)(=O)=O)CC(C)(C)CCC#N)cc1", "read-out": "Ki", "read by": "fluorescence", "value": "<0.001 µM"}
{"smiles": "CCOC[C@@H]1CC(NC(=O)[C@H](OCc2ccccc2)[C@H](O)[C@@H](O)[C@@H](OCc2ccccc2)C(=O)N[C@H]2c3ccccc3C[C@H]2O)CO1", "read-out": "Ki", "read by": "fluorescence", "value": "0.003 µM"}
{"smiles": "NC(=O)C[C@H](N)C(=O)N[C@@H](Cc1ccccc1)[C@@H](O)C(=O)NCC1CCCCC1", "read-out": "IC50", "value": ">1000 µM"}
{"smiles": "COC(=O)N[C@H](C(=O)NN(CC[C@]1(Cc2ccccc2)C(=O)N(C2c3ccccc3C[C@H]2O)C[C@H]1O)Cc1ccc(Br)cc1)C(C)(C)C", "read-out": "Ki", "read by": "fluorescence", "value": "0.0063 µM"}
{"smiles": "CC(C)(CCOC(=O)NC1CC1)CN(C[C@@H](O)[C@H](Cc1ccccc1)NC(=O)O[C@H]1CO[C@H]2OCC[C@H]21)S(=O)(=O)c1ccc2c(c1)OCO2", "read-out": "Ki", "read by": "fluorescence", "value": "<0.001 µM"}
{"smiles": "CC(C)CN(C[C@@H](O)[C@H](Cc1ccccc1)NC(=O)CCCN1C(=O)c2ccccc2C1=O)S(=O)(=O)c1ccc(Br)cc1", "read-out": "IC50", "value": ">0.1 µM"}
{"smiles": "COc1ccc(S(=O)(=O)N(C[C@@H](O)[C@H](Cc2ccccc2)NC(=O)O[C@H]2CO[C@H]3OCC[C@H]32)CC(C)(C)CCNC(=O)NCC(N)=O)cc1", "read-out": "Ki", "read by": "fluorescence", "value": "<0.001 µM"}
{"smiles": "COC(=O)N[C@H](C(=O)NN(CC[C@@]1(Cc2ccccc2)C(=O)N(C2c3ccccc3C[C@H]2O)C[C@H]1O)Cc1ccc(-c2ccncc2)cc1)C(C)(C)C", "read-out": "Ki", "read by": "fluorescence", "value": "0.0063 µM"}
{"smiles": "CC(C)(CCCNC(=O)c1cc(F)cc(F)c1)CN(C[C@@H](O)[C@H](Cc1ccccc1)NC(=O)O[C@H]1CO[C@H]2OCC[C@H]21)S(=O)(=O)c1ccc2c(c1)OCO2", "read-out": "Ki", "read by": "fluorescence", "value": "<0.001 µM"}
{"smiles": "CCC(C)[C@H](NC(=O)[C@H](C(C)C)[C@@H](O)[C@H](O)C(=O)[C@H](CC(C)C)NC(=O)[C@H](Cc1cnc[nH]1)NC(=O)COc1ccccc1)C(=O)NCc1ccccn1", "read-out": "Ki", "value": "0.003 µM"}
{"smiles": "Cc1ccccc1CNC(=O)[C@H]1N(C(=O)[C@@H](O)[C@H](Cc2ccccc2)NC(=O)CC(C)(C)C(=O)OC[C@@H]2O[C@H](n3cc(C)c(=O)[nH]c3=O)C[C@H]2N=[N+]=[N-])CSC1(C)C", "read-out": "IC50", "value": "<5 µM"}
{"smiles": "CC(=O)ONc1ccc(S(=O)(=O)N(CC(C)C)C[C@@H](O)[C@H](Cc2ccccc2)NC(=O)CCc2c[nH]c3ccccc23)cc1", "read-out": "IC50", "value": "0.032 µM"}
{"smiles": "CCCCOC(=O)NCCC(C)(C)CN(C[C@@H](O)[C@H](Cc1ccccc1)NC(=O)O[C@H]1CO[C@H]2OCC[C@H]21)S(=O)(=O)c1ccc2c(c1)OCO2", "read-out": "Ki", "read by": "fluorescence", "value": "<0.001 µM"}
{"smiles": "COc1ccc(S(=O)(=O)N(CC(C)C)C[C@@H](O)[C@H](Cc2ccccc2)NC(=O)c2cccnc2)cc1", "read-out": "IC50", "value": "0.067 µM"}
{"smiles": "CC(=O)ONc1ccc(S(=O)(=O)N(CC(C)C)C[C@@H](O)[C@H](Cc2ccccc2)NC(=O)CCCN2C(=O)c3ccccc3C2=O)cc1", "read-out": "IC50", "value": ">0.1 µM"}
{"smiles": "CC(C)(C)OC(=O)N[C@H](Cc1ccc(O)cc1)/C(O)=C(\\C#N)c1c(F)c(F)c(F)c(F)c1F", "read-out": "IC50", "read by": "HPLC", "value": "3.5 µM"}
{"smiles": "COc1ccc(S(=O)(=O)N(CCCCC2(C)OCCO2)C[C@@H](O)[C@H](Cc2ccccc2)NC(=O)O[C@H]2CCOC2)cc1", "read-out": "Ki", "read by": "fluorescence", "value": "0.001–0.01 µM"}
{"smiles": "COc1ccc(S(=O)(=O)N(CC(C)C)C[C@@H](O)[C@H](Cc2ccccc2)NC(=O)c2cc(C)ccc2C)cc1", "read-out": "IC50", "value": "0.007 µM"}
{"smiles": "NC(=O)C[C@H](NC(=O)OCc1ccccc1)C(=O)N[C@@H](Cc1ccccc1)[C@H](O)C(=O)N1CCC[C@H]1C(=O)NC1CCCCC1", "read-out": "IC50", "value": "<5 µM"}
{"smiles": "CC(C)(C)CC(=O)NCCC(C)(C)CN(C[C@@H](O)[C@H](Cc1ccccc1)NC(=O)O[C@H]1CO[C@H]2OCC[C@H]21)S(=O)(=O)c1ccc2c(c1)OCO2", "read-out": "Ki", "read by": "fluorescence", "value": "<0.001 µM"}

A second listing of 5 rows from above:

CC(C)(CCCCNC(=O)C1CC1)CN(C[C@@H](O)[C@H](Cc1ccccc1)NC(=O)O[C@H]1CO[C@H]2OCC[C@H]21)S(=O)(=O)c1ccc2c(c1)OCO2 ; read-out: Ki ; read by: fluorescence ; value: <0.001 µM
CC(C)(C)CC(=O)NCCC(C)(C)CN(C[C@@H](O)[C@H](Cc1ccccc1)NC(=O)O[C@H]1CO[C@H]2OCC[C@H]21)S(=O)(=O)c1ccc2c(c1)OCO2 ; read-out: Ki ; read by: fluorescence ; value: <0.001 µM
Cc1cn([C@@H]2C[C@@H](N=[N+]=[N-])[C@H](COC(=O)CC(C)(C)CC(=O)N[C@@H](Cc3ccccc3)[C@H](O)C(=O)N3CSC[C@H]3C(=O)NC(C)(C)C)O2)c(=O)[nH]c1=O ; read-out: IC50 ; value: >5 µM
COC(=O)N[C@H](C(=O)NN(CC[C@]1(Cc2ccccc2)C(=O)N(C2c3ccccc3C[C@H]2O)C[C@@H]1O)Cc1ccc(Br)cc1)C(C)(C)C ; read-out: Ki ; read by: fluorescence ; value: 0.0063 µM
COC(=O)N[C@H](C(=O)NN(CCC[C@@]1(Cc2ccccc2)C(=O)N(C2c3ccccc3C[C@H]2O)C[C@H]1O)Cc1ccc(-c2cccnc2)cc1)C(C)(C)C ; read-out: Ki ; read by: fluorescence ; value: 0.0063 µM